Data on two molecules can be found in US20240132578A1.

Assay in all cases: cell-based or functional assay
The target of test [1] is 162-pseudovirus panel representing all major circulating HIV-1 subtypes.
Test [2] addresses HIV-1 clade D Env pseudoviruses of the cross-clade 162-pseudovirus panel (n=25).
Test [3] deals with HIV-1 clade C Env pseudoviruses of the cross-clade 162-pseudovirus panel (n=27).
Test [4] addresses HIV-1 Env of the clade A pseudoviruses of the cross-clade 162-pseudovirus panel (n = 26).
Test [5] addresses HIV-1 clade G Env pseudoviruses of the cross-clade 162-pseudovirus panel (n=15).
Test [6] deals with HIV-1 clade B Env pseudoviruses of the cross-clade 162-pseudovirus panel (n=31).
Test [7] addresses HIV-1 Env of the clade AE pseudoviruses of the cross-clade 162-pseudovirus panel (n = 10).
Test [8] concerns the target HIV-1 clade A Env pseudoviruses of the cross-clade 162-pseudovirus panel (n=26).
For test [9], the target named is HIV-1 clade F Env pseudoviruses of the cross-clade 162-pseudovirus panel (n=15).
The target in test [10] is HIV-1 clade AG Env pseudoviruses of the cross-clade 162-pseudovirus panel (n=10).
Test [11] concerns the target HIV-1 clade AE Env pseudoviruses of the cross-clade 162-pseudovirus panel (n=10).

B1: 5329_C19 (PGT-136) (antibody, V domains shown)
VH: QLQLQESGPGLVKPSETLSLTCTVSGGSMRGTDWGENDFHYGWIRQSSAKGLEWIGSIHWRGRTTHYKTSFRSRATLSIDTSNNRFSLTFSFVTAADTAVYYCARHKYHDIFRVVPVAGWFDPWGQGLLVTVSS
VL: EIVMTQSPPTLSVSPGETATLSCRASQNVKNNLAWYQLKPGQAPRLLIFDASSRAGGIPDRFSGSGYGTDFTLTVNSVQSEDFGDYFCQQYEEWPRTFGQGTKVDIK
In [1], B1 returned a Percent viruses neutralized, IC50 < 0.1 µg/ml of 3%. In test [1], this molecule yielded a Percent viruses neutralized, IC50 < 1 µg/ml of 6%. Further, the Median IC50 (µg/ml) against viruses neutralized with an IC50 <50 µg/ml (section D) in test [2] was 2.1 µg/mL; in test [3] it was 0.28 µg/mL; in test [5], 7.54 µg/mL; in [6], 2.09 µg/mL. The Median IC50 (µg/ml) against viruses neutralized with an IC50 <50 µg/ml in test [4] came to 2.34 µg/mL.

B2: 5114_A19 (PGT-128) (antibody, V domains shown)
VH: QPQLQESGPTLVEASETLSLTCAVSGDSTAACNSFWGWVRQPPGKGLEWVGSLSHCASYWNRGWTYHNPSLKSRLTLALDTPKNLVFLKLNSVTAADTATYYCARFGGEVLRYTDWPKPAWVDLWGRGTLVTVSS
VL: QSALTQPPSASGSPGQSITISCTGTSNNFVSWYQQHAGKAPKLVIYDVNKRPSGVPDRFSGSKSGNTASLTVSGLQTDDEAVYYCGSLVGNWDVIFGGGTKLTVL
Consider B2, for which the Median IC50 (µg/ml) against viruses neutralized with an IC50 <50 µg/ml in test [1] amounted to 0.02 µg/mL; in test [7] it was 0.05 µg/mL. Also, in test [1], the Percent viruses neutralized, IC50 < 0.1 µg/ml amounted to 50%. Further, in test [1], the Percent viruses neutralized, IC50 < 1 µg/ml was found to be 60%. In addition, the Median IC50 (µg/ml) against viruses neutralized with an IC50 <50 µg/ml (section D) in [2] was 0.12 µg/mL; in test [8] it was 0.04 µg/mL; in test [9], 1.17 µg/mL; in test [10] it was 0.13 µg/mL; in test [3], 0.17 µg/mL; in test [5] it was 0.12 µg/mL. In addition, the Median IC50 (µg/ml) against viruses neutralized with an IC50 <50 µg/ml (section D) in test [6] is 0.07 µg/mL; in test [11], 1.47 µg/mL.
